Values of other authors, collected in US20090162921A1 (priority 2005, published 2009).

System: mouse
Details: for LD50: oral toxicity, arsenic species at various steps of methylation

| Molecule | LD50 (50% of the fatal dose in mouse) | LD50 |
| --- | --- | --- |
| C[As](=O)(O)O | 1800 mg/kg |  |
| arsenous acid | 4.5 mg/kg | 4.5 mg/kg |
| arsenocholine | 6000 mg/kg | 6,000 mg/kg |
| trimethylarsineoxide | 10600 mg/kg | 10,600 mg/kg |
